In ChEMBL document CHEMBL6087416, “Discovery of novel fused-heterocycle-bearing diarypyrimidine derivatives as HIV-1 potent NNRTIs targeting tolerant region I for enhanced antiviral activity and resistance profile” (Eur J Med Chem, 2025) one finds IC50 data, which are given here for 1 molecule.

This test has as its target Human immunodeficiency virus type 1 reverse transcriptase (Human immunodeficiency virus 1, UniProt Q72547). Nature of the test: Inhibition of wild type HIV-1 Reverse transcriptase incubated for 1 hrs by ELISA analysis.

Molecule `Cc1cc(C#N)cc(C)c1Oc1nc(Nc2ccc(C#N)cc2)nc(N)c1Br` [ETRAVIRINE] yielded an IC50 of 30 nM.
